Reference: PMC5923241, “The ng_ζ1 toxin of the gonococcal epsilon/zeta toxin/antitoxin system drains precursors for cell wall synthesis” (Nature Communications, 2018)

Sequences of proteins named here, by UniProt entry; tags and fusion partners are left off. A change or cut given only in a name is not applied to a line headed by its entry.
UniProt D5K9G7: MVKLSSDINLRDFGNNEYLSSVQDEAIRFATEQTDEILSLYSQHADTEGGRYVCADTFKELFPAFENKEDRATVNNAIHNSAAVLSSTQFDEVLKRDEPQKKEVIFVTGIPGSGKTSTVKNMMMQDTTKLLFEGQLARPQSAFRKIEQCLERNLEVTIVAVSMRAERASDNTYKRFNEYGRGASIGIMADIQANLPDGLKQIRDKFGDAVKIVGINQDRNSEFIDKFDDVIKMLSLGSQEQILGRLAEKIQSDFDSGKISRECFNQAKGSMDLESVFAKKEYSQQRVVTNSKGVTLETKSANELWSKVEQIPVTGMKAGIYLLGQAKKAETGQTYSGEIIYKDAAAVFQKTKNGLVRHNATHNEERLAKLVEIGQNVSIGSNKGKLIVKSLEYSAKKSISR

Molecular target: ngε_1/ngζ_1 (Neisseria gonorrhoeae, UniProt D5K9G7)
Assay: X-ray crystal structure (soak), […] Å
Settings: active site of ngζ_1; 20 mM soak, 100 mM sodium citrate pH 4.5

CC(=O)N[C@H]1[C@@H](OP(=O)(O)OP(=O)(O)OC[C@H]2O[C@@H](n3ccc(=O)[nH]c3=O)[C@H](O)[C@@H]2O)O[C@H](CO)[C@@H](O)[C@@H]1O[C@H](C)C(=O)O
X-ray crystal structure (soak), 2.7 Å: we soaked UNAM into crystals and determined the structure of the complex
